Measured values from several laboratories, pooled; numbers as filed in NIAID ChemDB.

Common to all: tests on isolated targets; species: HIV-1; protein: Reverse transcriptase

Lines come from different laboratories, so protocols vary. An empty or dashed field is not shown. ICn is the concentration giving n% inhibition.

structure | endpoint | changes | strain | read by | value
CCc1cc(CCc2nc3ccccc3o2)c(=O)[nH]c1C | IC50 |  |  | nucleotide incorporation | 0.029 µM
Cc1cn([C@H]2CC[C@@H](COP(=O)(O)OP(=O)(O)OP(=O)(O)O)O2)c(=O)[nH]c1=O | IC50 |  | IIIB |  | 0.025 µM
C[C@H](Cn1cnc2c(N)ncnc21)OCP(=O)(O)OP(=O)(O)OP(=O)(O)O | IC50 |  |  |  | 25 µM
COc1ccc2c(c1)N(C(=O)OC(C)C)[C@@H](CSC)C(=S)N2 | IC50 | RT-V106A |  | scintillation proximity / radiometric | 0.58 µM
Cc1cc(Cl)cc(S(=O)(=O)c2cccc(N)c2C#N)c1 | IC50 |  |  |  | 0.003 µM
CC[C@H]1CN2CCc3cc(OC)c(OC)cc3[C@@H]2C[C@@H]1CC1=NCCc2cc(O)c(OC)cc21.O=C(O)C(=O)O | IC50 |  |  |  | 404 µM
COc1ccc(CCNC(=S)Nc2ccc(Br)cn2)cc1 | IC50 |  |  | scintillation proximity | 1 µM
CC(C)=CCN1Cc2cccc3[nH]c(=S)n(c23)C[C@@H]1C | IC50 |  |  | nucleotide incorporation | 0.14 µM
CCc1c(Sc2ccccn2)n(COCc2ccccc2)c(=O)[nH]c1=O | IC50 | RT-V106A |  |  | 38 µM
O=C(/C=C/c1ccc(O)c(O)c1)Oc1c(-c2ccc(Cl)c(Cl)c2)oc2ccccc2c1=O | IC50 |  |  |  | 50 µM
CSCSc1nc(Cc2ccccc2)c(C(C)C)c(=O)[nH]1 | Ki |  | IIIB |  | 0.5 µM
Cc1ccc(CCNC(=S)Nc2ccc(Br)cn2)cc1 | IC50 |  |  | scintillation proximity | 0.4 µM
O=C(Oc1c(-c2ccc(Cl)cc2)oc2ccccc2c1=O)c1cc(OCc2ccccc2)c(OCc2ccccc2)c(OCc2ccccc2)c1 | IC50 |  |  |  | 100 µM
O=C(O)/C=C/c1ccc(O)c(O)c1 | IC50 |  |  | RT activity / nucleotide incorporation / fluorescence | >100 µM
Nc1nc2c(ncn2[C@H]2CC[C@@H](COP(=O)(O)OP(=O)(O)OP(=O)(O)O)O2)c(=O)[nH]1 | IC50 | RT-E138K |  |  | 0.022 µM
Nc1nc2c(ncn2[C@H]2CC[C@@H](COP(=O)(O)OP(=O)(O)OP(=O)(O)O)O2)c(=O)[nH]1 | IC50 |  |  |  | 0.5 µM
N#Cc1c(N)cccc1S(=O)(=O)c1cccc(C(F)(F)F)c1 | IC50 |  |  |  | >18 µM
CC[C@@]1(O)C(=O)OCc2c1cc1n(c2=O)Cc2cc3ccccc3nc2-1 | IC50 |  |  |  | >100 µM
Nc1cc(Cl)nc(SCc2ccc3ccccc3c2)n1 | IC50 | RT-P236L |  | nucleotide incorporation | 0.15 µM
Cc1cc(O)cc(S(=O)(=O)c2cccc(N)c2C#N)c1 | IC50 |  |  |  | 0.04 µM
Cc1c(Sc2ccccc2)n(COCCO)c(=O)[nH]c1=O | IC50 | RT-L100I |  |  | >5 µM
Nc1nc2c(ncn2CCOCP(=O)(O)OP(=O)(O)OP(=O)(O)O)c(=O)[nH]1 | IC50 |  |  |  | 3.7 µM
CCCCOc1cc(C)cc(S(=O)(=O)c2cccc(N)c2C#N)c1 | IC50 |  |  |  | 0.7 µM
O=C(/C=C/c1ccc(O)c(O)c1)Oc1c(-c2ccc(Cl)cc2)oc2ccccc2c1=O | IC50 |  |  |  | >100 µM
Cc1cc(=O)oc2c3c(c4c(c12)OC(C)(C)C=C4)O[C@H](C)[C@@H](C)[C@@H]3O | IC50 |  |  | nucleotide incorporation | 12.3 µM
Nc1ncnc2c1ncn2CCOCP(=O)(O)OP(=O)(O)OP(=O)(O)O | IC50 |  |  |  | 5.7 µM
COc1ccc(C(=O)O)c(O)c1 | IC50 |  |  | RT activity / nucleotide incorporation / fluorescence | >100 µM
CC(=O)Oc1ccc(/C=C/C(=O)Oc2c(-c3ccc(Cl)cc3)oc3ccccc3c2=O)cc1OC(C)=O | IC50 |  |  |  | >100 µM
COc1cc(C(F)(F)F)cc(S(=O)(=O)c2cccc(N)c2C#N)c1 | IC50 |  |  |  | 0.01 µM
C[C@H](Cn1cnc2c(=O)[nH]c(N)nc21)OCP(=O)(O)O | IC50 |  |  |  | >100 µM
N#Cc1cc(Cl)cc(Oc2cc(OS(=O)(=O)F)ccc2Cl)c1 | IC50 |  | IIIB | RT activity / fluorescence | 0.883 µM
C[C@H](Cn1cnc2c(N)ncnc21)OCP(=O)(O)O | IC50 |  |  |  | >100 µM
Cc1occc1C(=S)Nc1ccc(Cl)c(/C=N/OC(C)(C)C)c1 | IC50 | RT-L100I |  |  | 25 µM
CN(C)C(=O)/C=C/CSc1nc(N)cc(Cl)n1 | IC50 | RT-P236L |  | nucleotide incorporation | 0.07 µM
CCc1cc(CCc2nc3ccccc3o2)c(=S)[nH]c1C | IC50 |  |  | nucleotide incorporation | 0.027 µM
CC(C)=CCN1Cc2cccc3[nH]c(=S)n(c23)C[C@@H]1C | IC50 |  |  |  | 0.35 µM
C/C=C/CSc1cc(NC(=S)c2ccsc2C)ccc1Cl | IC50 | RT-P236L |  |  | 8.5 µM
COc1cc(/C=C/C(=O)Oc2c(-c3ccc(Cl)c(Cl)c3)oc3ccccc3c2=O)ccc1O | IC50 |  |  |  | >100 µM
COc1ccc(C=O)c(O)c1 | IC50 |  |  | RT activity / nucleotide incorporation / fluorescence | >100 µM
S=C(NCCc1ccc(Cl)cc1)Nc1ccc(Br)cn1 | Ki |  |  | scintillation proximity | 4.7 µM
CC(=O)Oc1c(-c2ccc(Cl)c(Cl)c2)oc2ccccc2c1=O | IC50 |  |  |  | >100 µM
CCC1=C(C[C@H]2NCCc3cc(OC)c(OC)cc32)C[C@H]2c3cc(OC)c(OC)cc3CCN2C1 | IC50 |  |  |  | 9 µM

A second listing of 5 rows from above:

structure	endpoint	changes	strain	read by	value
O=C(O)/C=C/c1ccc(O)c(O)c1	IC50			RT activity / nucleotide incorporation / fluorescence	>100 µM
O=C(/C=C/c1ccc(O)c(O)c1)Oc1c(-c2ccc(Cl)c(Cl)c2)oc2ccccc2c1=O	IC50				50 µM
CCCCOc1cc(C)cc(S(=O)(=O)c2cccc(N)c2C#N)c1	IC50				0.7 µM
Cc1cc(Cl)cc(S(=O)(=O)c2cccc(N)c2C#N)c1	IC50				0.003 µM
C[C@H](Cn1cnc2c(N)ncnc21)OCP(=O)(O)OP(=O)(O)OP(=O)(O)O	IC50				25 µM